A mixed list of measured activities; the numbers were collected in NIAID ChemDB.

Common to all: enzyme or target tests; organism: HIV-1; protein: Protease; method: substrate cleavage; measure: Ki

Conditions beyond the fields shown may differ between rows. An empty or dashed field is not shown.

{"structure": "CC1=N[C@H](CC(C)C)C(=O)N(Cc2ccc(-c3ccccc3)cc2)c2cc(C(=O)OC(C)(C)C)ccc21", "result": ">200 µM"}
{"structure": "COc1ccc2c(c1)OCCCCCCCC(C)CN(C[C@@H](O)[C@H](Cc1ccccc1)NC(=O)O[C@H]1CO[C@H]3OCC[C@H]31)S2(=O)=O", "result": "0.00015 µM"}
{"structure": "CCCC1(CCc2ccccc2)CC(=O)C(C(SCC)c2cccc(NS(=O)(=O)c3ccc(C(F)(F)F)cn3)c2)C(=O)C1", "result": "0.001 µM"}
{"structure": "CC(C)[C@H](NC(=O)OCc1ccccc1)C(=O)N[C@@H](Cc1ccccc1)[C@@H](O)[C@@H](NCc1ccc(Br)cc1)C(=O)N[C@H](C(=O)NCc1nc2ccccc2[nH]1)C(C)C", "result": "0.008 µM"}
{"structure": "Nc1cccc(C(=O)N[C@H](Cc2ccccc2)C[C@H](O)[C@H](Cc2ccccc2)NC(=O)c2cccc(N)c2)c1", "mutations": "PR-R8Q", "result": "0.034 µM"}
{"structure": "CCC(C)[C@@H]1NC(=O)C(NCC(=O)[C@@H]2Cc3ccc(cc3)OCCCCC(=O)N[C@@H](C(C)C)C(=O)N2)Cc2ccc(cc2)OCCCNC1=O", "result": "0.8 µM"}
{"structure": "Cc1cccc(C)c1OCC(=O)N[C@@H](Cc1ccccc1)[C@@H](O)C[C@H](Cc1ccccc1)NC(=O)[C@@H](NS(=O)(=O)c1ccccc1)C(C)C", "result": "0.005 µM"}
{"structure": "COC(=O)[C@@H]1CCCN1C(=O)C(=O)C(Cc1ccccc1)NC(=O)OC(C)(C)C", "result": "6 µM"}
{"structure": "COc1ccc2c(c1)OCCC/C=C\\CN(C[C@@H](O)[C@H](Cc1ccccc1)NC(=O)O[C@H]1CO[C@H]3OCC[C@H]31)S2(=O)=O", "result": "0.00008 µM"}
{"structure": "Cc1cccc(C)c1OCC(=O)N[C@@H](Cc1ccccc1)[C@@H](O)C[C@H](Cc1ccccc1)NC(=O)[C@@H](NS(=O)(=O)c1cnn(-c2ccccc2)c1C)C(C)C", "result": "1.2 µM"}
{"structure": "CCN(/C=C1\\C(=O)Nc2ccc(S(=O)(=O)N(CC(C)C)C[C@@H](O)[C@H](Cc3ccccc3)NC(=O)O[C@H]3CO[C@H]4OCC[C@H]43)cc21)CC", "strain or isolate": "HXB2", "result": "<0.0001 µM"}
{"structure": "Cc1cccc(C)c1OCC(=O)N[C@@H](Cc1ccccc1)[C@@H](O)C[C@H](Cc1ccccc1)NC(=O)[C@@H](NS(=O)(=O)c1ccc(-c2cc(C(F)(F)F)n(C)n2)s1)C(C)C", "result": "0.038 µM"}
{"structure": "CC(C)CN(C[C@@H](O)[C@H](Cc1ccccc1)NC(=O)O[C@H]1CO[C@H]2OCC[C@H]21)S(=O)(=O)c1ccc2[nH]c(O)c(C=NCc3nc4ccccc4[nH]3)c2c1", "mutations": "L10 V32 M46 L63 A71 I84", "result": "<0.0003 µM"}
{"structure": "COc1ccc2c(c1)OCC/C=C\\CN(C[C@@H](O)[C@H](Cc1ccccc1)NC(=O)O[C@H]1CO[C@H]3OCC[C@H]31)S2(=O)=O", "result": "0.000077 µM"}
{"structure": "CC(C)C[C@@H](NC(=O)[C@H](O)COS(=O)(=O)O)C(=O)N[C@@H]1C(=O)N[C@@H](CCCN=C(N)N)C(=O)N[C@H]2CC[C@H](O)N(C2=O)[C@@H](CC(C)C)C(=O)N[C@H](Cc2ccc(O)cc2)C(=O)N[C@H](C(C)C)C(=O)O[C@@H]1C", "result": "0.001 µM"}
{"structure": "O=C(N[C@@H](Cc1ccccc1)[C@H](O)[C@H](O)[C@H](CC1C=CC=CC1)NC(=O)c1ccccc1)c1ccccc1", "result": "0.04 µM"}

2 of the rows above, restated:

structure,mutations,strain or isolate,result
O=C(N[C@@H](Cc1ccccc1)[C@H](O)[C@H](O)[C@H](CC1C=CC=CC1)NC(=O)c1ccccc1)c1ccccc1,,,0.04 µM
CC(C)[C@H](NC(=O)OCc1ccccc1)C(=O)N[C@@H](Cc1ccccc1)[C@@H](O)[C@@H](NCc1ccc(Br)cc1)C(=O)N[C@H](C(=O)NCc1nc2ccccc2[nH]1)C(C)C,,,0.008 µM